For six compounds, IC50 results are on record in publication PMC9491098, “Discovery of novel drug-like antitubercular hits targeting the MEP pathway enzyme DXPS by strategic application of ligand-based virtual screening” (Chemical Science, 2022).

Amino acid sequences for entries named in this document (tags omitted).
UniProt P9WNS3, whole entry: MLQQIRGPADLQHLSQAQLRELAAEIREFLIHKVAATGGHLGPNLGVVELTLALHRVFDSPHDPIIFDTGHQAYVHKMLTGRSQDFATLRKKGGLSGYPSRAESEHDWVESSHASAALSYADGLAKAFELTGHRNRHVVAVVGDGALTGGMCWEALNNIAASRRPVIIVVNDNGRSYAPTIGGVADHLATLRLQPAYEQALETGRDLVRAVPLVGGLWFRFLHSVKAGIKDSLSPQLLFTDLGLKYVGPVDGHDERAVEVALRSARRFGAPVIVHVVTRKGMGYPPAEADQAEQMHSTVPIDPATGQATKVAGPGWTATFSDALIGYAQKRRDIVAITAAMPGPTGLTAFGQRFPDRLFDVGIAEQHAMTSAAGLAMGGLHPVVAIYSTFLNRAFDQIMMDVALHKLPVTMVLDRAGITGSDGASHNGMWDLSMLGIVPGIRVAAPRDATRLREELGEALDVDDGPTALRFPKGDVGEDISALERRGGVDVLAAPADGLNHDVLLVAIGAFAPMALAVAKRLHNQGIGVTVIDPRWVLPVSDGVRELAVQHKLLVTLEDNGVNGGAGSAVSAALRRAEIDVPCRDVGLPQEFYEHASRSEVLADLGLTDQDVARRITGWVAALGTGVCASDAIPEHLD

Where only a bound is given, the exact number is not on record here.

The target of one experiment is MtDXPS (Mycobacterium tuberculosis, UniProt P9WNS3). As to the kind of experiment: coupled spectrophotometric enzyme activity assay against MtDXPS. It counts as biochemical. The note with it: Table S1, first round of LBVS.
For the compound `NC(=O)c1nnn(Cc2ccccc2)c1N`, the IC50 is above 240 µM.

Turning to `CN1C(=O)NC2(O)C(=O)c3ccccc3C12O` (stereo not drawn), the 50% inhibitory concentration (IC50) was above 1000 µM.

Consider `CC(=O)Nc1ncc(Cc2ccc(C)cc2)s1`, for which the half-maximal inhibitory concentration (IC50) was above 30 µM.

Consider `Sc1nnc(-c2csc3c2CCCC3)[nH]1`, for which the concentration for half-maximal inhibition (IC50) amounted to 528 µM.

Still in this experiment, the particulars now being: Table S2, second round of LBVS.
In the case of `O=C(O)c1ccc(-n2cccc2/C=N/O)cc1`, the half-inhibitory concentration (IC50) is above 500 µM.

Regarding `Cc1ccccc1Cn1c(CCO)nc2ccccc21`, the IC50 was above 500 µM.
